# Test: Inhibition of SARS CoV papain-like protease (1541 to 1855 residues) using Arg-Leu-Arg-Gly-Gly-AMC as substrate preincubated for 5 mins followed by substrate addition and shaken for 30 secs and further incubated for 6 mins by fluorescence method
# Set-up: species or system Severe acute respiratory syndrome-related coronavirus
structure (smiles),measurement,value
Cc1ccccc1C(=O)N[C@@H](C)c1cccc2ccccc12,IC50,2.3 µM

# Reference: ChEMBL document CHEMBL4732232, “Protease targeted COVID-19 drug discovery: What we have learned from the past SARS-CoV inhibitors?” (Eur J Med Chem, 2021)
